Earlier results in PMC4554341.

Molecular target: His37 (UniProt position 37, IIGILHLILWI)
Assay: NMR
Details: Membrane-bound tetramer

For “Matrix protein 2 (M2) transmembrane peptide M2TM, M2(22-46) (Influenza A virus)”, the pKa is given as 7.6.
